Anti-infective test results gathered from many reports (values: NIAID ChemDB through PubChem).

Common to all: whole-cell or culture tests; species: Mycobacterium tuberculosis

Inhibition is in % at the dose shown (toxicity tests: loss of growth or viability).

| SMILES | strain | dose | cell line | read by | conditions | endpoint | result |
|---|---|---|---|---|---|---|---|
| CO[C@@H]1[C@@H](OC(N)=O)[C@@H](O)[C@H](Oc2ccc3c(O)c(NC(=O)c4ccc(O)c(CC=C(C)C)c4)c(=O)oc3c2C)OC1(C)C | H37Rv (ATCC 27294) | - | - | resazurin | - | MIC | 2 µg/mL |
| COc1ccc2cc3[n+](cc2c1OC)CCc1cc2c(cc1-3)OCO2 | H37Rv | - | - | BACTEC | - | MIC | ≥12.5 µg/mL |
| Cc1cccc(N2CCN(CN3C(=O)C(=O)c4cc(NC(=O)N/N=C/c5ccc(Cl)cc5)ccc43)CC2)c1 | MDR | - | - | resazurin | - | MIC | 25 µg/mL |
| CN1CCN(CCCOc2ncc(Nc3ncc(-c4ccc(C(F)(F)F)c(F)c4)nc3C(N)=O)cn2)CC1 | H37Rv (ATCC 27294) | - | - | resazurin | - | MIC | <0.5 µg/mL |
| O=C(N/N=C/c1ccc(Cl)cc1)c1sc2ccc(Oc3ccccc3)cc2c1Cl | H37Rv | 6.25 µg/mL | - | - | - | inhibition | 10% |
| CCCc1ccc(NC(=O)c2cc(Br)ccc2O)cc1 | My 331/88 | - | - | - | - | MIC | 2 µM |
| CC(=O)c1ccc(N=Nc2c(O)c3cc(Cl)ccc3[nH]c2=O)cc1 | H37Rv | - | - | resazurin | - | MIC | >6.25 µg/mL |
| COc1cc(CC(=O)N2COC(c3sc4ccc(Oc5ccccc5)cc4c3Cl)=N2)cc(OC)c1OC | H37Rv | 6.25 µg/mL | - | - | - | inhibition | 19% |
| O=C(N/N=C/c1ccc(Cl)cc1)Nc1ccc2c(c1)C(=O)C(=O)N2CN1CCNCC1 | MDR | - | - | resazurin | - | MIC | 25 µg/mL |
| COc1ccc(/C=N/NC(=O)[C@H](CO)NC(=O)OC(C)(C)C)cc1OC | H37Rv | - | - | resazurin | - | MIC | >100 µg/mL |
| [CH3][Sn]([CH3])([Cl])[Br].c1cnc2c(c1)ccc1cccnc12 | H37Rv | - | VERO | BACTEC | - | MIC | 12.5 µg/mL |
| O=C(N[C@@H](CO)C(=O)N/N=C/c1ccc(O)c(O)c1)OCc1ccccc1 | H37Rv | - | - | resazurin | - | MIC | >100 µg/mL |
| Cc1ccc(/C=N/NC(=O)Nc2ccc3c(c2)C(=O)C(=O)N3CN2CCNCC2)cc1 | MDR | - | - | resazurin | - | MIC | >50 µg/mL |
| [N-]=[N+]=NC(CCl)c1cn(COCCO)c(=O)[nH]c1=O | H37Ra | 10 µg/mL | - | - | - | inhibition | 25% |
| Cc1ccc(S(=O)(=O)C(=S)N(C)N(C)C)cc1 | H37Rv | 128 µg/mL | - | BACTEC | - | inhibition | 100% |
| NNC(=O)c1ccncc1 | MDR | - | - | resazurin | - | MIC | 12.5 µg/mL |
| CCn1cc(C(=O)O)c(=O)c2cc(F)c(N3CCN(CN4C(=O)C(=O)c5cc(Br)ccc54)CC3)cc21 | H37Rv | - | - | BACTEC | - | EC50 | <12.5 µg/mL |
| O=c1[nH]c(=O)n(COCCO)cc1Br | H37Ra | - | - | - | - | EC50 | >100 µg/mL |
| CCCCCCOc1cccc(NC(=O)OCCN(C)C)c1 | My 331/88 | - | - | - | - | MIC | 16 µM |
| O=C(CCC(F)(F)F)N1CCC(N2N=C(c3ccccc3)CC2=O)CC1 | H37Rv-GFP | - | Macrophages | GFP / fluorescence | - | EC50 | >5 µM |
| CCCCCCCCOc1ccc(NC(=O)OCCN2CCOCC2)cc1 | My 331/88 | - | - | - | - | MIC | 16 µM |
| CCCCCC#Cc1cn(COCCO)c(=O)[nH]c1=O | H37Ra | - | - | - | - | EC50 | >100 µg/mL |
| C[C@@]12CCC[C@@]3(C)C(=O)OCCCOC(=O)CC(=O)OCCCOC(=O)[C@@]4(C)CCC[C@]5(C)C6CC[C@]7(C)C[C@@]6(CCC54)C[C@@H]7OC(=O)CCCCCCCC(=O)O[C@@H]4C[C@@]5(CCC13)C[C@]4(C)CCC52 | H37Rv | - | - | BACTEC / radiometric | - | MIC99 | 1 µg/mL |
| CC1=NN(c2ccccc2)C(=O)C1N=Nc1ccc(S(=O)(=O)Nc2nccs2)cc1 | H37Rv | 12.8 µg/mL | - | BACTEC | - | inhibition | 87% |
| COc1ccc2cc3[n+](cc2c1OC)CCc1cc2c(cc1-3)OCO2 | H37Rv | - | - | - | - | MIC | 25 µg/mL |
| COc1ccc(C2OCC3(O)C(c4ccc(OC)c(OC)c4)OCC23)cc1OC | H37Rv | 12.5 µg/mL | - | BACTEC | - | inhibition | 0% |
| CCCCCCOc1cccc(NC(=O)OCCN2CCOCC2)c1 | My 331/88 | - | - | - | - | MIC | 32 µM |
| Cc1ccc(N=Nc2c(O)c3ccc(Cl)c(Cl)c3[nH]c2=O)cc1 | H37Rv | - | - | resazurin | - | MIC | <6.25 µg/mL |
| C=C(C)[C@@H]1CCC(C)(O)[C@H](Br)CCC2C(C)=CCC(C)=C2Cc2cc(ccc2O)C(=O)O1 | - | - | - | - | - | MIC | 49 µM |
| CCCCCCCOc1cccc(NC(=O)OCCN(C)C)c1 | My 331/88 | - | - | - | - | MIC | 16 µM |
| Cc1ccc(-c2cnc(Nc3ccc(OCCCN4CCN(C)CC4)cc3)c(C(N)=O)n2)cc1F | H37Rv (ATCC 27294) | - | - | resazurin | - | MIC | 0.5 µg/mL |
| O=c1[nH]c2c(Cl)cccc2c(O)c1N=Nc1ccccc1Cl | H37Rv | - | - | resazurin | - | MIC | >6.25 µg/mL |
| COc1ccc(/C=N/NC(=O)[C@H](CO)NC(=O)OCc2ccccc2)cc1OC | H37Rv | - | - | resazurin | - | MIC | >100 µg/mL |
| [N-]=[N+]=NC(CBr)c1cn(COCCO)c(=O)[nH]c1=O | H37Ra | - | - | - | - | EC50 | 10 µg/mL |
| O=C(N/N=C/c1ccc(O)cc1)c1sc2ccc(Oc3ccccc3)cc2c1Cl | H37Rv | 6.25 µg/mL | - | - | - | inhibition | 5% |
| CCCCCCCCCCOc1ccc(NC(=O)OCC[NH+]2CCCC2)cc1 | My 331/88 | - | - | - | - | MIC | 16 µM |
| [N-]=[N+]=NC(CI)c1cn(COCCO)c(=O)[nH]c1=O | H37Ra | - | - | - | - | EC50 | 10 µg/mL |
| Cn1c(=O)c2c(nc(CCCCCCCc3nc4c(c(=O)n(C)c(=O)n4C)n3C)n2C)n(C)c1=O | H37Rv | - | - | BACTEC | - | MIC bound | >6.25 µg/mL |
| COc1ccccc1/C=N/NC(=O)[C@H](CO)NC(=O)OC(C)(C)C | H37Rv | - | - | resazurin | - | MIC | >100 µg/mL |
| NNC(=O)CCc1ccccc1O | H37Rv | 12.5 µg/mL | - | BACTEC | - | inhibition | 74% |
| O=c1[nH]c(=O)n(COCCO)cc1F | H37Ra | - | - | - | - | EC50 | >100 µg/mL |
| O=C(Cc1cccc(Br)c1)N1COC(c2sc3ccc(Oc4ccccc4)cc3c2Cl)=N1 | H37Rv | 6.25 µg/mL | - | - | - | inhibition | 0% |
| NNC(=O)c1ccncc1 | 2218 | - | - | - | - | MIC | >2 µg/mL |
| CC(C)(C)c1ccc(NC(=O)c2cc(Cl)ccc2O)cc1 | My 331/88 | - | - | - | - | MIC | 8 µM |
| C=C(C)[C@@H]1CCC(C)(O)[C@H](Br)CC[C@@]2(C)C(=C(C)CC[C@@H]2Br)Cc2cc(ccc2O)C(=O)O1 | - | - | - | - | - | MIC | >100 µM |
| CCCCCCCCc1ccc2c(c1)C(=O)c1nc3ccncc3c(=O)n1-2 | H37Rv | - | - | - | - | MIC | 0.015 µg/mL |
| Cc1cc(N/N=C/c2ccc([N+](=O)[O-])o2)c2cc3c(cc2n1)OCO3 | H37Rv | - | - | BACTEC | - | MIC | ≥12.5 µg/mL |
| CCn1cc(C(=O)O)c(=O)c2cc(F)c(N3CCN(Cn4c(O)c(N=NC(N)=O)c5ccccc54)CC3)cc21 | H37Rv | - | - | BACTEC | - | MIC | >12.5 µg/mL |
| Cc1ccc(-c2cnc(Nc3cnc(OCCCN4CCN(C)CC4)nc3)c(C(N)=O)n2)cc1F | H37Rv (ATCC 27294) | - | - | resazurin | - | MIC | 0.5 µg/mL |
| CN(/N=N/c1nc[nH]c1C(=O)NN)C1CCCCC1 | H37Rv | 12.5 µg/mL | - | BACTEC | - | inhibition | -7% |
| CCn1cc(C(=O)O)c(=O)c2cc(F)c(N3CCN(CN4C(=O)C(=O)c5cc(Cl)ccc54)CC3)cc21 | H37Rv | 12.5 µg/mL | - | BACTEC | - | inhibition | 95% |
| CC(C)(C)OC(=O)N[C@@H](CO)C(=O)N/N=C/c1ccccc1O | H37Rv | - | - | resazurin | - | MIC | >100 µg/mL |
| Cc1ccc(-c2cnc(NCCCN(C)C)c(C(N)=O)n2)cc1F | H37Rv (ATCC 27294) | - | - | resazurin | - | MIC | >32 µg/mL |
| CCn1cc(C(=O)O)c(=O)c2cc(F)c(N3CCN(Cn4c(O)c(N=NC(N)=S)c5cc(Br)ccc54)CC3)cc21 | H37Rv | - | - | BACTEC | - | EC50 | <12.5 µg/mL |
| O=C1N(c2nncs2)CCN1[N+](=O)[O-] | H37Rv | - | - | BACTEC | - | MIC | 3.13 µg/mL |
| Cn1c(=O)c(N=Nc2ccccc2[N+](=O)[O-])c(O)c2ccccc21 | H37Rv | 6.25 µg/mL | - | resazurin | - | inhibition | 94% |
| N#Cc1ncc(C(Cl)(Cl)Cl)nc1Cl | INH-r | - | - | - | - | MIC | 6.3 µg/mL |
| CCCCCCc1ccc(NC(=O)c2cc(Br)ccc2O)cc1 | My 331/88 | - | - | - | - | MIC | 8 µM |
| O=C(N[C@@H](CO)C(=O)N/N=C/c1ccccc1[N+](=O)[O-])OCc1ccccc1 | H37Rv | - | - | resazurin | - | MIC | >100 µg/mL |
| O=C1NC(c2ccccc2)C(=O)NC1c1ccccc1 | H37Rv | - | - | BACTEC | - | MIC bound | >12.5 µg/mL |
| CCn1cc(C(=O)O)c(=O)c2cc(F)c(N3CCN(CN4C(=O)C(=O)c5ccccc54)CC3)cc21 | H37Rv | 12.5 µg/mL | - | BACTEC | - | inhibition | 95% |
| Cc1ccc2c(c1)C(=O)c1nc3ccncc3c(=O)n1-2 | H37Rv | - | - | - | - | MIC | 0.13 µg/mL |
| O=c1[nH]c2c([N+](=O)[O-])cccc2c(O)c1N=Nc1ccc([N+](=O)[O-])cc1 | H37Rv | - | - | resazurin | - | MIC | <6.25 µg/mL |
| C/C=C1/C[C@@H](C)[C@](C)(O)C(=O)OC[C@@H]2[C@@H]3[C@@H](CCN3C[C@H]2O)OC1=O | H37Rv | - | - | BACTEC | - | MIC | ≥12.5 µg/mL |
| CC1=CC[C@H](Br)[C@@]2(C)CC[C@@H](Br)C(C)(O)CC[C@@H](C(C)(C)Br)OC(=O)c3ccc(O)c(c3)C[C@H]12 | - | - | - | - | - | MIC | >100 µM |
| CCCCCCCCC#Cc1cn(COC(CO)CO)c(=O)[nH]c1=O | H37Ra | - | - | - | - | EC50 | 10 µg/mL |
| c1ccc(-c2nc3cc4c(cc3n3cccc23)oc2ccccc24)cc1 | H37Rv | 12.5 µg/mL | - | BACTEC | - | inhibition | -3% |
| CCCCCCCOc1cccc(NC(=O)OCCN2CCOCC2)c1 | My 331/88 | - | - | - | - | MIC | 16 µM |
| O=C(N[C@@H](CO)C(=O)N/N=C/c1cc(O)ccc1O)OCc1ccccc1 | H37Rv | - | - | resazurin | - | MIC | >100 µg/mL |
| COc1ccc(N=Nc2c(O)c3cccc([N+](=O)[O-])c3[nH]c2=O)c(C)c1 | H37Rv | 6.25 µg/mL | - | resazurin | - | inhibition | 45% |
| O=C1C2=Nc3ccccc3C(O)N2c2ccccc21 | H37Rv | - | - | resazurin | - | MIC | 6.25 µg/mL |
| CC(C)COc1ccc(NC(=S)Nc2ccc(-c3ccccn3)cc2)cc1 | H37Rv | - | - | - | - | MIC | >50 µg/mL |
| CN1[C@@H]2CC[C@H]1CC(OC(=O)[C@H](CO)c1ccccc1)C2 | H37Rv | - | - | BACTEC | - | MIC bound | >12.8 µg/mL |
| O=c1ccn(COCCO)c(=O)[nH]1 | H37Ra | - | - | - | - | EC50 | >100 µg/mL |
| Cc1c(OCC(F)(F)F)ccnc1CSc1nc2ccccc2[nH]1 | - | - | - | resazurin | clinical isolate | MIC90 | 0.49 µM |
| CCN(CC)CCN1C(=O)CN=C(c2ccccn2)c2cc(Cl)ccc21 | H37Rv | 128 µg/mL | - | BACTEC | - | inhibition | 56% |
| O=C(N[C@@H](CO)C(=O)N/N=C/c1ccccc1O)OCc1ccccc1 | H37Rv | - | - | resazurin | - | MIC | >100 µg/mL |
| NC(=O)CC(N=C1C(=O)OC(C(O)CO)C1=NC(CC(N)=O)C(=O)O)C(=O)O | H37Rv | - | - | BACTEC | - | MIC bound | >12.5 µg/mL |
| C[C@@H]1C[C@H]2C[C@]1(OC(=O)CC(=O)O[C@]13CCC4[C@](CCC5[C@@]4(C)CCC[C@@]5(C)C(=O)O)(C[C@@H]1C)C3)CC1C2CCC2[C@]1(C)CCC[C@]2(C)C(=O)O | H37Rv | - | - | BACTEC | - | MIC | 5 µg/mL |
| CCCCOc1ccccc1NC(=O)OCCN1CCOCC1 | My 331/88 | - | - | - | - | MIC | 250 µM |
| COCC1(C)C2CC2[C@@]2(C)CC[C@@H](Br)[C@@](C)(O)CC[C@@H](C(C)(C)Br)OC(=O)c3ccc(O)c(c3)CC12 | H37Rv (ATCC 27294) | - | - | resazurin | - | MIC90 | 94 µM |
| Cc1ccc(-c2cnc(Nc3cccc(OCCCN(C)C)c3)c(C(N)=O)n2)cc1F | H37Rv (ATCC 27294) | - | - | resazurin | - | MIC | 0.7 µg/mL |
| Cc1cccc(Nc2nc(N)nc(N)c2N=O)c1 | H37Rv | 12.5 µg/mL | - | BACTEC | - | inhibition | 31% |
| Cc1ccc(-c2cnc(Nc3cnc(OCCCN4CCN(C)CC4)nc3)c(C(N)=O)n2)c(F)c1 | H37Rv (ATCC 27294) | - | - | resazurin | - | MIC | 0.5 µg/mL |
| C[C@@]1(CO)[C@H](O)CC[C@@]2(C)[C@H]1CC[C@H]1C[C@@H]3C[C@@]12CC[C@]3(O)CO | H37Rv | 12.5 µg/mL | - | BACTEC | - | inhibition | 3% |
| Cc1ccc(/C=N/NC(=O)Nc2ccc3c(c2)C(=O)C(=O)N3CN(C)C)cc1 | MDR | - | - | resazurin | - | MIC | >50 µg/mL |

Lines come from different laboratories, so protocols vary. An empty or dashed field is not shown. MIC bound comes from a single tested concentration. A number after MIC or MFC names an inhibition level or a share of isolates. ECn: concentration that inhibits the pathogen or its effect by n%.